Experimental data as given in patent publication US11639348B2, “Compositions and methods for neuraminidase detection and quantification” (priority 2018, dated 2023).

System: B/Hong Kong/1972 NA

## CC(=O)NC1C(NC(=N)N)C(F)C(Oc2c(F)cc3c(C)cc(=O)oc3c2F)(C(=O)O)OC1[C@H](O)[C@H](O)CO (stereo partly drawn) [compound 3, 5-Acetamido-4-guanidine-3-fluoro-3,4,5-trideoxy-2α-(4-methyl-6,8-difluoromethylumbelliferyl)-D-glycero-D-galactononulopyranosylnoic acid]
Type B virus, concentrations well below Ki
  ki/Ki (second-order rate constant): 18.0 min⁻¹ µM⁻¹
Type B vs N9
  ki/Ki of type B relative to N9: about 110 fold
